Compound potency records, mixed from different reports. Data source: NIAID ChemDB in PubChem.

All rows: enzyme or target tests; agent: HIV-1; protein: Protease

Neighbouring rows are from separate reports.

compound | setting | method | read-out | value
CC(C)CC(NC(=O)[C@H](C)NC(=O)C[C@H](O)C(CC(C)C)NC(=O)[C@@H](NC(=O)[C@H](Cc1ccc(O)cc1)NC(=O)OCc1ccccc1)C(C)C)[C@@H](O)CC(=O)NCCCCNc1ccn([C@H]2CS[C@@H](CO)O2)c(=O)n1 |  | HPLC | IC50 | 0.6 µM
CC(C[C@@H](OC(C)(C)C)[C@H](O)C(C)(C)O)[C@@H]1CC[C@]2(C)C3=CCC4C(C)(C)C(=O)C(O)=C[C@]4(C)C3CC[C@@]12C |  | substrate cleavage / fluorescence | IC50 | >100 µM
O=S1(=O)N(Cc2ccccc2/C=C/c2ccccc2)C[C@H](O)[C@@H](O)CN1Cc1ccccc1Cc1ccccc1 |  | fluorescence | Ki | 1.8 µM
CC(O)[C@@H]1CC(NC(=O)[C@H](OCc2ccccc2)[C@H](O)[C@@H](O)[C@@H](OCc2ccccc2)C(=O)N[C@H]2c3ccccc3C[C@H]2O)CO1 |  | fluorescence | Ki | 0.00054 µM
CC(C)CN(C[C@@H](O)[C@H](Cc1ccc(-c2ccc(N3CCOCC3)cc2)cc1)NC(=O)O[C@H]1CCOC1)S(=O)(=O)c1ccc(N)cc1 |  |  | IC50 | 0.0046 µM
O=S1(=O)N(Cc2ccccc2CCc2ccccc2)C[C@H](O)[C@@H](O)CN1Cc1ccccc1-c1ccccc1 |  | fluorescence | Ki | 9.3 µM
Cc1c(O)cccc1C(=O)N[C@H](C(=O)N(Cc1ccccc1)N(CCO)C(=O)[C@@H]1CCCN1C(=O)OC(C)(C)C)[C@@H](C)O |  | HPLC | IC50 | 131 µM
CC[C@H](C)CN(C[C@@H](O)[C@H](CCc1ccccc1)NC(=O)c1cccc(O)c1)S(=O)(=O)c1ccc2ncsc2c1 |  |  | Ki | 0.000039 µM
Cc1cccc(C)c1OCC(=O)N[C@@H](Cc1ccccc1)C[C@@H](O)[C@H](Cc1ccccc1)NC(=O)[C@H](NC(=O)c1cc(=O)c2ccccc2[nH]1)C(C)C |  | fluorescence | IC50 | 0.003 µM
CC[C@@H](C)[C@H](NC(=O)[C@@H]1CCCN1C(=O)[C@@H](O)[C@H](CC1CCCCC1)NC(=O)[C@H](CC(N)=O)NC(=O)[C@@H]1Cc2ccccc2N1)C(=O)N[C@H](C(N)=O)C(C)C |  |  | IC50 | <5 µM
CC(C)CC(NC(=O)[C@H](C)NC(=O)C[C@H](O)C(CC(C)C)NC(=O)[C@@H](NC(=O)[C@H](Cc1ccc(O)cc1)NC(=O)OCc1ccccc1)C(C)C)[C@@H](O)CC(=O)Nc1ccn([C@H]2CS[C@@H](CO)O2)c(=O)n1 |  | HPLC | IC50 | 0.2 µM
COc1ccc2c(O)c(S(=O)(=O)c3ccc(Cl)cc3)c(=O)oc2c1 |  |  | IC50 | 28 µM
CC(O)[C@@H]1CC(NC(=O)[C@H](OCc2ccccc2)[C@H](O)[C@@H](O)[C@@H](OCc2ccccc2)C(=O)N[C@@H]2CO[C@H](C(C)O)C2)CO1 |  | fluorescence | Ki | 0.208 µM
Cc1cccc(C)c1OCC(=O)N[C@@H](Cc1ccccc1)C[C@@H](O)[C@H](Cc1ccccc1)NC(=O)[C@@H](NC(=O)c1cc(=O)c2ccccc2[nH]1)c1cccs1 |  | fluorescence | IC50 | 0.003 µM
CSCC[C@H](NC(=O)c1cccc(O)c1C)C(=O)N(Cc1ccccc1)N(CO)C(=O)[C@@H]1CCCN1C(=O)OC(C)(C)C |  | HPLC | IC50 | 135 µM
O=C(COc1ccccc1)N[C@@H](Cc1ccccc1)C[C@@H](O)[C@H](Cc1ccccc1)NC(=O)COc1ccccc1 |  | fluorescence | IC50 | 17 µM
Cc1nsc(C)c1CNC(=O)[C@H]1N(C(=O)[C@@H](O)C[C@@H](Cc2ccccc2)C(=O)N[C@H]2c3ccccc3OC[C@H]2O)COC12CCCC2 |  |  | IC50 | 0.00011 µM
COc1ccc2c(O)c(Oc3ccccc3)c(=O)oc2c1 |  |  | IC50 | 61 µM
COc1cccc(S(=O)(=O)N(Cc2cccs2)C[C@@H](O)[C@H](CCc2ccccc2)NC(=O)c2cccc(F)c2C)c1 |  |  | Ki | 0.042 µM
CC[C@H](C)[C@H](NC(=O)[C@H](CCC(N)=O)NC(=O)[C@@H]1CCCN1C[C@H](Cc1ccccc1)NC(=O)[C@H](CC(N)=O)NC(=O)[C@H](Cc1ccccc1)NC(C)=O)C(N)=O | pH 5.75 | substrate cleavage | IC50 | >10 µM
Cc1c(O)cccc1C(=O)N[C@H](C(=O)N(c1ccccc1)N(CCO)C(=O)[C@@H]1CCCN1C(=O)OC(C)(C)C)[C@@H](C)O |  | HPLC | IC50 | 205 µM
O=C(Cc1cccc2ccccc12)Nc1ccccc1CN1C[C@H](O)[C@@H](O)CN(Cc2ccccc2Br)S1(=O)=O |  | fluorescence | Ki | 0.28 µM
Cc1ccccc1CNC(=O)[C@H]1N(C(=O)[C@@H](O)[C@H](CCc2ccccc2)NC(=O)O[C@H]2CCOC2)CSC1(C)C |  |  | Ki | 0.00021 µM
CC(C[C@@H](OC(=O)CC(C)(C)CC(=O)O)[C@H](OC(=O)CC(C)(C)CC(=O)O)C(C)(C)O)[C@@H]1CC[C@]2(C)C3=CCC4C(C)(C)C(=O)CC[C@]4(C)C3CC[C@@]12C |  | substrate cleavage / fluorescence | IC50 | >100 µM
C=CCOC[C@@H]1CC(NC(=O)[C@H](OCc2ccccc2)[C@H](O)[C@@H](O)[C@@H](OCc2ccccc2)C(=O)N[C@H]2c3ccccc3C[C@H]2O)CO1 |  | fluorescence | Ki | 0.0113 µM
O=C(COc1ccccc1O)N[C@@H](Cc1ccccc1)C[C@@H](O)[C@H](Cc1ccccc1)NC(=O)COc1ccccc1O |  | fluorescence | IC50 | 9 µM
O=S1(=O)N(Cc2ccccc2Cc2ccccc2)C[C@H](O)[C@@H](O)CN1Cc1ccccc1-c1ccccc1 |  | fluorescence | Ki | 6.3 µM
CC(C)(C)NC(=O)[C@@H]1C[C@]2(C)CCCC[C@]2(C)CN1C[C@@H](O)CNc1ccc2[nH]ccc2c1 |  |  | IC50 | 176 µM
CC(C)(C)NC(=O)[C@@H]1CSCN1C(=O)[C@@H](O)[C@H](Cc1ccccc1)NC(=O)[C@H](CS(C)(=O)=O)NC(=O)c1cc2ccccc2o1 |  |  | IC50 | <0.05 µM
CCn1ccc2cc(-c3ccc(C[C@H](NC(=O)O[C@H]4CCOC4)[C@H](O)CN(CC(C)C)S(=O)(=O)c4ccc(N)cc4)cc3)cnc21 |  |  | IC50 | 0.00151 µM
COc1ccc(Cc2c(O)c3ccc(OC)cc3oc2=O)cc1 |  |  | IC50 | 3 µM
CC(C)[C@H](NC(=O)[C@H](Cc1ccccc1)C[C@H](O)[C@H](Cc1ccccc1)NC(=O)OC(C)(C)C)C(=O)N[C@@H](Cc1ccccc1)C(=O)N1CCOCC1 |  | fluorescence | IC50 | 0.009 µM
CC(C)[C@H](NC(=O)[C@@H]1CCCN1C(=O)[C@@H](O)[C@H](Cc1ccccc1)NC(=O)[C@H](CC(N)=O)NC(=O)CCc1ccccc1)C(N)=O |  |  | IC50 | <5 µM
CC(C)C[C@H](NC(=O)[C@@H](NC(=O)[C@@H](N)Cc1c[nH]c2ccccc12)C(C)C)[C@@H](O)CC(=O)NC(Cc1ccccc1)c1ccccc1 |  | HPLC | IC50 | 0.02 µM
O=c1oc2cccc(O)c2c(O)c1-c1ccccc1 |  |  | IC50 | 31 µM
COC(=O)[C@H](Cc1ccccc1)NC(=O)[C@H](CCC(=O)OCC1CCCCC1)NC(=O)C[C@H](O)C(CC(C)C)NC(=O)[C@@H](NC(=O)[C@H](Cc1c[nH]c2ccccc12)NC(=O)CCCCC(=O)Nc1ccn([C@H]2CS[C@@H](CO[Si](c3ccccc3)(c3ccccc3)C(C)(C)C)O2)c(=O)n1)C(C)C |  | HPLC | IC50 | 2 µM
COc1ccc2c(O)c(Oc3ccc(Cl)cc3)c(=O)oc2c1 |  |  | IC50 | 8 µM
COC(=O)[C@H](Cc1ccccc1)NC(=O)[C@H](CCC(=O)Nc1ccn([C@H]2CS[C@@H](CO[Si](c3ccccc3)(c3ccccc3)C(C)(C)C)O2)c(=O)n1)NC(=O)C[C@H](O)C(CC(C)C)NC(=O)[C@@H](NC(=O)[C@H](Cc1c[nH]c2ccccc12)NC(C)=O)C(C)C |  | HPLC | IC50 | 0.06 µM
O=C(N[C@H]1c2ccccc2C[C@H]1O)[C@H](Cc1ccccc1)C[C@H](O)CN1C(=O)[C@H](Cc2ccccc2)C[C@@H]1Cc1ccccc1 |  |  | Ki | >0.5 µM
Cc1c(O)ccc2c(O)c(Oc3ccc4ccc(=O)oc4c3)c(=O)oc12 |  |  | IC50 | 9 µM
Cc1cccc(C)c1OCC(=O)N[C@@H](Cc1ccccc1)C[C@@H](O)[C@H](Cc1ccccc1)NC(=O)COc1c(C)cccc1C |  | fluorescence | IC50 | 0.025 µM
O=c1oc2cc(O)ccc2c(O)c1Cc1ccccc1 |  |  | IC50 | 9.5 µM
COc1ccc(S(=O)(=O)N(CC(C)C)C[C@@H](O)[C@H](Cc2ccc(-c3cccc(F)c3)cc2)NC(=O)O[C@H]2CCOC2)cc1 |  |  | IC50 | 0.0065 µM
CO[C@@H]([C@@H](CC(C)[C@@H]1CC[C@]2(C)C3=CCC4C(C)(C)C(O)CC[C@]4(C)C3CC[C@@]12C)OC(C)(C)C)C(C)(C)O |  | substrate cleavage / fluorescence | IC50 | >100 µM
COC[C@@H]1CC(NC(=O)[C@H](OCc2ccccc2)[C@H](O)[C@@H](O)[C@@H](OCc2ccccc2)C(=O)N[C@@H]2CO[C@H](COC)C2)CO1 |  | fluorescence | Ki | 0.103 µM
CC[C@H](C)[C@H](NC(=O)[C@@H]1CCCN1C(=O)[C@@H](O)[C@H](Cc1ccccc1)NC(=O)[C@H](CC(=O)O)NC(=O)[C@H](Cc1ccccc1)NC(=O)[C@@H](N)CO)C(=O)N[C@H](C(N)=O)C(C)C | pH 5.75 | substrate cleavage | IC50 | 0.005 µM
CC(C)CN(C[C@@H](O)[C@H](Cc1ccccc1)NC(=O)OC1CO[C@H]2OC[C@H](O)[C@@H]12)S(=O)(=O)c1ccc(N)cc1 |  |  | IC50 | 0.0025 µM
CC(C)CCCC(C)[C@H]1CCC2C3CC[C@H]4C[C@@H](CCC=C(c5cc(Cl)c(OCc6ccccc6B(O)O)c(C(=O)O)c5)c5cc(Cl)c(OCc6ccccc6B(O)O)c(C(=O)O)c5)CC[C@]4(C)C3CC[C@@]21C |  |  | IC50 | 0.0014 µM
CC(C)(CO)NC(=O)[C@@H]1CCCN1C(=O)[C@@H](O)[C@H](Cc1ccccc1)NC(=O)[C@H](CC(N)=O)NC(=O)OCc1ccccc1 |  |  | IC50 | >0.05 µM
CC(C)CC(NC(=O)[C@@H](NC(=O)[C@H](Cc1c[nH]c2ccccc12)NC(=O)CCCCC(=O)Nc1ccn([C@H]2CS[C@@H](CO[Si](c3ccccc3)(c3ccccc3)C(C)(C)C)O2)c(=O)n1)C(C)C)[C@@H](O)CC(=O)NC(Cc1ccccc1)c1ccccc1 |  | HPLC | IC50 | 0.45 µM
CC(=O)O[C@H](CC(C)[C@@H]1CC[C@]2(C)C3=CCC4C(C)(C)C(=O)CC[C@]4(C)C3CC[C@@]12C)[C@H](OC(C)=O)C(C)(C)OC(C)=O |  | substrate cleavage / fluorescence | IC50 | >100 µM
COc1ccc(S(=O)(=O)N(CC(C)C)C[C@@H](O)[C@H](Cc2ccc(-c3ccccc3F)cc2)NC(=O)O[C@H]2CCOC2)cc1 |  |  | IC50 | 0.0044 µM
NC(=O)C[C@H](NC(=O)COc1cccc2ccccc12)C(=O)N[C@@H](Cc1ccccc1)[C@H](O)C(=O)N1CSC[C@H]1C(=O)N1CCCCC1 |  |  | IC50 | <5 µM
COC(=O)c1cccc(-c2ccc(C[C@H](NC(=O)O[C@H]3CCOC3)[C@H](O)CN(CC(C)C)S(=O)(=O)c3ccc(OC)cc3)cc2)c1 |  |  | IC50 | 0.0081 µM
CO[C@@H]([C@@H](CC(C)[C@@H]1CC[C@]2(C)C3=CCC4C(C)(C)C(=O)CC[C@]4(C)C3CC[C@@]12C)OC(C)(C)C)C(C)(C)O |  | substrate cleavage / fluorescence | IC50 | >100 µM
COc1ccc2c(O)c(Cc3ccccc3)c(=O)oc2c1 |  |  | IC50 | 2.4 µM

Again, the opening 6 rows:

compound,setting,method,read-out,value
CC(C)CC(NC(=O)[C@H](C)NC(=O)C[C@H](O)C(CC(C)C)NC(=O)[C@@H](NC(=O)[C@H](Cc1ccc(O)cc1)NC(=O)OCc1ccccc1)C(C)C)[C@@H](O)CC(=O)NCCCCNc1ccn([C@H]2CS[C@@H](CO)O2)c(=O)n1,,HPLC,IC50,0.6 µM
CC(C[C@@H](OC(C)(C)C)[C@H](O)C(C)(C)O)[C@@H]1CC[C@]2(C)C3=CCC4C(C)(C)C(=O)C(O)=C[C@]4(C)C3CC[C@@]12C,,substrate cleavage / fluorescence,IC50,>100 µM
O=S1(=O)N(Cc2ccccc2/C=C/c2ccccc2)C[C@H](O)[C@@H](O)CN1Cc1ccccc1Cc1ccccc1,,fluorescence,Ki,1.8 µM
CC(O)[C@@H]1CC(NC(=O)[C@H](OCc2ccccc2)[C@H](O)[C@@H](O)[C@@H](OCc2ccccc2)C(=O)N[C@H]2c3ccccc3C[C@H]2O)CO1,,fluorescence,Ki,0.00054 µM
CC(C)CN(C[C@@H](O)[C@H](Cc1ccc(-c2ccc(N3CCOCC3)cc2)cc1)NC(=O)O[C@H]1CCOC1)S(=O)(=O)c1ccc(N)cc1,,,IC50,0.0046 µM
O=S1(=O)N(Cc2ccccc2CCc2ccccc2)C[C@H](O)[C@@H](O)CN1Cc1ccccc1-c1ccccc1,,fluorescence,Ki,9.3 µM

ICn is the concentration giving n% inhibition. An empty or dashed field is not shown.